Measurements taken from patent publication US20200123233A1.

How the values were obtained:
[1] = target: authentic AIV antigen / virus of influenza strain A/Turkey/Wisconsin/68 (H5N9) (influenza A virus A/Turkey/Wisconsin/68 (H5N9))
[2] = target: authentic AIV antigen / virus of influenza strain A/Turkey/Wisconsin/68 (H5N9) (influenza A virus A/Turkey/Wisconsin/68 (H5N9)); experiment: cell-based or functional assay

Binder | ELISA titer (NANOBODY concentration giving extinction 0.2) [1] | HI titer [2] | VNT titer [2]
IV155 (VHH) VHH: QVQLQESGGGLVQAGGSLRLSCAASGRSLSRYAMGWFRQAPGKEREFVATKTSGGVTYYGASVKGRFTISRDNAKNMVYLQMNSLNPEDTAIYYCAAGTDAIFKPWMLPDYWGQGTQVTVSG | 34.3 ng/mL | > 1000 µg/mL | > 50 µg/mL
IV146 (VHH) VHH: QVQLQQSGGGLVQAGGSLRLSCAASGSSFSINAMGWYRQAPGKQRELVAAISSGGSANYADSVKGRFTISRDNAKNTVYLQMNSLKPEDTAVYYCNAGSRFNPFGSAYDYWGQGTQVTVSS | 43 ng/mL | > 1000 µg/mL | < 0.75 µg/mL
IV157 (VHH) VHH: QVQLQQSGGGLVQPGGSLRLSCAASRSDISFNPMGWYRQAPGKQRELVATISNGGTTNYADSVKGRFTISQDNAKTTVYLQMNSLKPEDTAVYYCNGRGPRYATTGWYTDDYWGQGTQVTVSS | 14.5 ng/mL | > 1000 µg/mL | > 50 µg/mL
IV154 (VHH) VHH: QVQLQESGGGLVQAGGSLRLSCAASGRPFSSAAMGWFRQAPGKEREFVSAISYTGDVTRYADSVKGRFTISRDNTRNTLTLEMNSLKPEDTAVYYCAARTYAGVRAHTYDYDYWGQGTQVTVSS | 8.3 ng/mL | > 1000 µg/mL | > 50 µg/mL
